In patent US20240269228A1, “SELECTIVE PENICILLAMINE SUBSTITUTION ENABLES DEVELOPMENT OF A POTENT ANALGESIC PEPTIDE THAT ACTS THROUGH A NON-OPIOID BASED MECHANISM” (published 2024):

Molecular target: human α9α10 nAChR (human) (UniProt Q9UGM1)
Assay: cell-based or functional assay

| Substance | fold reduction in potency against RgIA-5474 [fold] | fold drop in potency against RgIA-5474 [fold] |
| --- | --- | --- |
| RgIA-5687 | 28 |  |
| RgIA-5702 |  | 7 |
